Data: article doi:10.1101/2024.06.06.597810 (bioRxiv, 2024)

T1: Biotin-labeled SARS-CoV-2 stem helix peptide (SARS-CoV-2 (NC_045512), UniProt P0DTC2, biotin (position not given))
T1 chain: DSFKEELDKYFKNH

B1: S2P6 UCA VH Y32Q Fab (Fab, V domains shown)
VH: QVQLVQSGAEVKKPGASVKVSCKASGYTFTSQYMHWVRQAPGQGLEWMGIINPSGGSTSYAQKFQGRVTMTRDTSTSTVYMELSSLRSEDTAVYYCARGSPKGAFDYWGQGTLVTVSS
VL: not shown
B2: S2P6 UCA VH M48I Fab (Fab, V domains shown)
VH: B1 VH with Q32Y, M48I
VL: not shown
B3: S2P6 UCA VH S56H Fab (Fab, V domains shown)
VH: B1 VH with Q32Y, S57H
VL: not shown
B4: S2P6 UCA VH Y32Q/M48I double mutant Fab (Fab, V domains shown)
VH: B1 VH with M48I
VL: not shown
B5: S2P6 UCA VH M48I/S56H double mutant Fab (Fab, V domains shown)
VH: B1 VH with Q32Y, M48I, S57H
VL: not shown
notes: source: Expi293F, co-transfected, purified (IgG-CH1-XL beads)
B6: S2P6 UCA VH Y32Q/M48I/S56H triple mutant Fab (Fab, V domains shown)
VH: B1 VH with M48I, S57H
VL: not shown
notes: as for B5

Target: T1, Biotin-labeled SARS-CoV-2 stem helix …
Settings: both partners purified

Binder	binding result
B1	binds
B2	binds
B3	binds
B4	binds
B5	binds
B6	binds

Residue numbers refer to the chain shown, from its start. Numbers in names are those of the source.
